According to publication PMC12724200 (mSphere, 2025):

Columns and labels:
[1] = target: recombinant mutant PTA (M365L) from OCT313-resistant BCG (Mycobacterium bovis, UniProt A0A679LAX5, M365L); details: for IC50: mutant type PTA
[2] = system: M. bovis BCG; test: Frequency of spontaneously generated drug-resistant colonies; assay type: cell-based, Mycobacterium bovis BCG; details: parent BCG strain
[3] = system: OCT313-resistant BCG; test: MIC by broth dilution method; assay type: cell-based, Mycobacterium bovis BCG; details: resistant vs parent BCG

Compound: CCN1C(=O)C=CC1=O [NEM, N-ethylmaleimide]
- IC50 [1]: 35.1 µM

Compound: CC(=O)N[C@@H]1[C@@H](O)[C@H](O)[C@@H](CO)O[C@H]1SC(=S)N(C)C [OCT313, 2-acetamido-2-deoxy-β-D-glucopyranosyl N,N-dimethyldithiocarbamate]
- IC50 [1]: 236 µM
- IC50 against mutant versus wild-type PTA ([1]; mutant vs wild-type PTA): 84 fold

Compound: Dimethyldithiocarbamate
- Frequency of spontaneously generated drug-resistant colonies [2]: 2.3 × 10^−5
- MIC against OCT313-resistant bacteria versus parent strain [3]: four times higher
